Test results published in patent publication US20230220054A1 (published 2023).

Biological target: SARS-CoV-2 S1 RBD (SARS-CoV-2, UniProt P0DTC2 319-541)
Test: BLI kinetics

B1: 1B-Fc (monoclonal VHH-Fc of Covid19-1B6) (antibody, V domains shown)
VH: EVQLVESGGGLVQPGGSLRLSCAASGSIFGINVMAWYRQAPGKGLEWISTIYNDASNTDYADSVKGRFTVSRDNSKNTLYLQMNSLRAEDTAKYYCFAESMRQWWGQGNQVTVSS
With B1 the Kd was 1.64 nM.
